# This is a selection; strong and weak results do not stand in their true shares. Active and inactive are the calls of the source. Rule as the data show it: active = inhibition above about 85%; inactive = the rest.
# Assay: growth inhibition of S. aureus RN4220, primary screen, OD600 (AID 1259311);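 also: plate controls were untreated cells for no effect and reference antibiotic for full effect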
# Conditions: OD600, 16 h, hits give high values
row,SMILES,inhibition
1,O=P1(Nc2ccc(Br)cn2)COc2ccccc2OC1,inactive: 10.1%

# Reference: PubChem BioAssay AID1259311 (ICCB-Longwood Screening Facility, Harvard Medical School, 2017)
